Pooled drug test results. Numbers come from NIAID ChemDB, via PubChem.

All rows: tests in culture; species: Candida parapsilosis

Two numbers with a dash give a range or band. ECn: concentration that inhibits the pathogen or its effect by n%. A number after MIC or MFC names an inhibition level or a share of isolates. An empty or dashed field is not shown. Rows are shuffled and stem from different studies.

| structure | method | read-out | strain or isolate | value |
|---|---|---|---|---|
| Cc1ccc(C(C)C)c(O)c1 | broth dilution / turbidity | EC50 | ATCC 22019 | 0.34 µM |
| CCCCCCCCNC1CCc2ccc(O)cc2C1 |  | MIC |  | 62 µM |
| C=CCc1ccc(O)c(-c2cc(CC=C)ccc2O)c1 | broth dilution | MIC |  | 80 µg/mL |
| O=c1cc(-c2ccccc2)oc2cc(O)c(O)c(O)c12 |  | MIC | ATCC 22019 | 52 µg/mL |
| C[C@@H]1[C@H](O)[C@@H](C)/C=C/C=C/CC/C=C/C=C/C=C/C=C/C(O[C@H]2O[C@H](C)[C@@H](O)[C@H](N)[C@@H]2O)CC2O[C@](O)(CC(O)C(O)CCC(O)CC(O)CC(O)CC(=O)O[C@H]1C)CC(O)C2C(=O)O |  | MIC | MTCC 1744 | 150 µg/mL |
| O=C(O)c1ccccc1O | broth dilution / turbidity | EC50 | ATCC 22019 | 0.17 µM |
| C1=C(c2cnc3ccccc3c2)C2CCN1CC2 | broth dilution | EC50 | ATCC 22019 | >16 µg/mL |
| O=C(O)c1ccccc1 |  | EC50 | PYCC 2545 | 0.13 µM |
| COc1ccc2cc3[n+](cc2c1OC)CCc1cc2c(cc1-3)OCO2 | broth dilution | MIC |  | 80 µg/mL |
| C1=C(c2ccc(OCc3ccccc3)cc2)C2CCN1CC2 | broth dilution | EC50 | ATCC 22019 | 8 µg/mL |
| COc1cnc2c3c(nccc13)C1SC=CC1C2=O |  | MIC80 |  | >64 µg/mL |
| C[C@H](Cc1ccc(O)c(O)c1)[C@@H](C)Cc1ccc(O)c(O)c1 | broth dilution | MIC80 | CCC 124-2000 | 250 µg/mL |
| COc1cc(C[C@@]2(O)CO[C@H](c3ccc(O)c(OC)c3)[C@H]2CO[C@@H]2O[C@@H](CO)[C@@H](O)[C@H](O)[C@H]2O)ccc1O | MTT | MIC | ATCC 22019 | 1.5 µg/mL |
| C=CCc1ccc(OC)cc1 |  | MIC90 |  | 0.016–0.025 µg/mL |
| CC(C)OC(=O)c1ccc(C2=CN3CCC2CC3)cc1 | broth dilution | EC50 | ATCC 22019 | >16 µg/mL |
| CCC(C)CC(C)CCCCCCCCC(=O)N[C@H]1C[C@@H](O)[C@H](NCCN)NC(=O)[C@@H]2[C@@H](O)CCN2C(=O)[C@H]([C@H](O)CCN)NC(=O)[C@H]([C@H](O)[C@@H](O)c2ccc(O)cc2)NC(=O)[C@@H]2C[C@@H](O)CN2C(=O)[C@H]([C@@H](C)O)NC1=O | broth dilution | MIC | 1856 | 1 µg/mL |
| C1=C(c2cc3ccccc3s2)C2CCN1CC2 | broth dilution | EC50 | ATCC 22019 | >16 µg/mL |
| c1ccc([Se][Se]c2ccccc2)cc1 | broth dilution | MIC | ATCC 90018 | >64 µg/mL |
| CN(C/C=C/C#CC(C)(C)C)Cc1cccc2ccccc12 | broth dilution | MIC50 | 52 clinical isolates | 4 µg/mL |
| CCOC(=O)c1ccc(C2=CN3CCC2CC3)cc1 | broth dilution | EC50 | ATCC 22019 | >16 µg/mL |